Here are results for five compounds from paper PMC3871185 (ACS medicinal chemistry letters, 2013).

The subject of the assay is Burkholderia thailandensis.
Take `Oc1c(CN2CCCCC2)cc(Cl)c2cccnc12` [compound 5]: the “growth inhibition of B. thailandensis (in words)” value is recorded as “inhibition of cell growth”. Then `Cc1ccc(S(=O)(=O)Nc2ccc(Br)cc2C(=O)O)cc1` [compound 24], with “nor the sulfonamide (24 and 25) derivatives demonstrated significant growth inhibition”; and `CN1CCN(Cc2cc(Cl)c3cccnc3c2O)CC1` [compound 8], with “inhibited cell growth”; and `Oc1ccc(Cl)c2cccnc12` [compound 4, reference compound], with “inhibited cell growth”. Turning to `Oc1c(CN2CCOCC2)cc(Cl)c2cccnc12` [compound 6], the “growth inhibition of B. thailandensis (in words)” value is on record as “inhibited cell growth”.
